Anti-infective test results gathered from many reports (values: NIAID ChemDB through PubChem).

All rows: growth or infection tests; organism: HIV-1; measure: EC50

ECn: concentration that inhibits the pathogen or its effect by n%. Blank or dashed fields: not listed here. Neighbouring rows are from separate reports.

structure | strain or isolate | read by | cell line | changes | result
C=CCOC(=O)c1cc(NC(=S)OC(C)C)ccc1Cl |  | syncytia | CEM | RT-E138K | 0.4451 µM
C[C@@H]([C@H]1CC[C@@]2(C)C3CCC4[C@](C)(C(=O)O[C@H]5O[C@@H](CO)[C@H](O)[C@@H](O)[C@@H]5O)[C@@H](O)C[C@H](O)[C@@]45C[C@@]35CC[C@]12C)[C@@H](O)C[C@H](O)C(C)(C)O | IIIB | fluorescence | H9 |  | 1.44 µM
CC(=O)Oc1cc(C(=O)Nc2ccc(S(=O)(=O)Nc3cccc(Cl)c3F)cc2)cc(OC(C)=O)c1OC(C)=O |  |  | MT-4 |  | >25 µM
C[C@@H]1CN(C(=O)c2ccccc2)CCN1C(=O)C(=O)c1c[nH]c2cccc(Cl)c12 |  | luciferase | HeLa + HELA CD4+/CCR5 |  | <10 µM
O=C(c1ccccc1)n1c(=O)ccn([C@@H]2C=CC3(CC2)O[C@H](c2ccccc2)[C@@H](c2ccccc2)O3)c1=O | NL4-3 | MTT | MT-4 |  | >25 µg/mL
CC(C)OC(=O)Oc1cc(NC(=S)OC(C)C)ccc1Cl |  | syncytia | CEM | RT-L100I | 21.1 µM
N#CSc1ccc2nc(N)sc2c1 | IIIB | MTT | MT-4 |  | >26 µM
O=c1ccn([C@H]2C=C[C@@H](O)CC2)c(=O)[nH]1 | NL4-3 | MTT | MT-4 |  | >25 µg/mL
C=C1C(n2cnc3c(N)ncnc32)C=CC1(CO)CO |  |  | MT-4 |  | 55.5 µM
CC(C)OC(=S)Nc1ccc(Cl)c(C(=O)OCC[Si](C)(C)C)c1 |  | syncytia | CEM | RT-E138K | 18.72 µM
[2H]C(CO)(CNC[C@H](O)[C@@]12CC[C@]3(C)[C@H](CC[C@@H]4[C@@]5(C)CC[C@H](OC(=O)[C@H]6C[C@@H](C(=O)O)C6(C)C)C(C)(C)[C@@H]5CC[C@]43C)C1=C(C(C)C)C(=O)C2)NC(=O)c1ccc(Cl)cc1 | 92HT599 | p24 / ELISA | MT-2 |  | <1 µM
N#CSc1ccc2nc(NC(=O)CN3C(=O)S/C(=C/c4ccccc4)C3=O)sc2c1 | IIIB | MTT | MT-4 |  | >73 µM
COc1ccc(N(C)C(=O)[C@H](Cc2cc(F)cc(F)c2)NC(=O)CN2CCN(S(=O)(=O)c3ccccc3[N+](=O)[O-])CC2=O)cc1 | IIIB | MTT | MT-4 |  | 2.84 µM
CC(C)OC(=S)Nc1ccc(Cl)c(C(=O)O)c1 |  | syncytia | CEM | RT-V106A | >36.53 µM
[2H]C(CCCN)(CNC(=O)C[C@@]12CC[C@]3(C)[C@H](CC[C@@H]4[C@@]5(C)CC[C@H](OC(=O)[C@H]6C[C@@H](C(=O)O)C6(C)C)C(C)(C)[C@@H]5CC[C@]43C)C1=C(C(C)C)C(=O)C2)NC(=O)c1ccc(Cl)cc1 | 92HT599 | p24 / ELISA | MT-2 |  | <1 µM
C=CCOc1cc(NC(=S)OC(C)C)ccc1Cl |  | syncytia | CEM | RT-E138K | 5.249 µM
Nc1ncnc2c1ncn2[C@@H]1C=CC(O)CC1 | NL4-3 | MTT | MT-4 |  | >25 µg/mL
Nc1nc(N)c2ncn([C@@H]3C[C@H](CO)C4CC43)c2n1 |  |  |  |  | >100 µg/mL
CC(C)OC(=S)Nc1ccc(Cl)c(C(=O)SC(C)C)c1 |  | syncytia | CEM | RT-V106A | 5.725 µM
Nc1ncnc2c1ncn2[C@@H]1C[C@H](CO)C2CC21 |  |  |  |  | >100 µg/mL
CC1(C)S[C@H]([C@H](NC(=O)Cc2ccccn2)C(=O)NCc2ccccc2)N[C@H]1C(=O)NCCNC(=O)[C@@H]1N[C@@H]([C@H](NC(=O)Cc2ccccn2)C(=O)NCc2ccccc2)SC1(C)C | IIIB | cytopathic effect / MTT | MT-4 |  | >100 µM
O=C(CCCN1C(=O)/C(=C/c2cccs2)SC1=S)Nc1ccc(O)c(C(=O)O)c1 |  | cytopathic effect / XTT | CEM + CEM-SS |  | >63 µM
C#CCOc1cc(NC(=S)OC(C)C)ccc1Cl |  | syncytia | CEM | RT-V106A | 1.762 µM
Cc1ccc2nc(/C(C#N)=C/c3ccc(-c4ccc(O)c(C(=O)O)c4)o3)[nH]c2c1 |  | cytopathic effect / XTT | CEM + CEM-SS |  | 59 µM
CN1CCN(C(=O)c2ccc3c(=O)c4ccccc4[nH]c3c2)CC1 |  | syncytia | CEM | RT-L100I | 1.212 µM
COc1ccc(N(C)C(=O)[C@H](Cc2cc(F)cc(F)c2)NC(=O)CN2CCN(S(=O)(=O)c3cccc([N+](=O)[O-])c3)CC2=O)cc1 | IIIB | MTT | MT-4 |  | 1.49 µM
O=C(Nc1ccc(S(=O)(=O)Nc2ccccc2Br)cc1)c1cc(O)c(O)c(O)c1 |  |  | MT-4 |  | >25 µM
Nc1ncnc2c1ncn2[C@@H]1C[C@H](COP(=O)(O)OP(=O)(O)OP(=O)(O)O)C2CC21 |  |  |  |  | >100 µg/mL
CC#C[C@]1(O)CC[C@H]2[C@@H]3CCC4=CC(=O)CCC4=C3[C@@H](c3ccc(N(C)C)cc3)C[C@@]21C | NL4-3-EGFP | GFP | CEMx174 + CEM |  | ~0.5 µM
CC(C)OC(=S)Nc1ccc(Cl)c(C(=O)OC2CC2)c1 | IIIB | syncytia | CEM |  | 0.127 µM
COc1ccc(N(C)C(=O)[C@H](Cc2cc(F)cc(F)c2)NC(=O)CN2CCN(S(=O)(=O)c3ccc([N+](=O)[O-])cc3)CC2=O)cc1 | IIIB | MTT | MT-4 |  | 1.01 µM
N#CSc1ccc2nc(NC(=O)CN3C(=O)S/C(=C/c4ccc(Cl)cc4)C3=O)sc2c1 | IIIB | MTT | MT-4 |  | >100 µM
CCC1CCCCN1CC(O)C1OC(C)(C)OC1c1cnn(-c2ccccc2)n1 | RF | cytopathic effect / MTS | CEM + CEM-SS |  | >100 µM
C=C1C(n2ccc(N)nc2=O)C=CC1(CO)CO |  |  | MT-4 |  | 10.67 µM
CC(C)C1=C2[C@H]3CC[C@@H]4[C@@]5(C)CC[C@H](OC(=O)[C@H]6C[C@@H](C(=O)O)C6(C)C)C(C)(C)[C@@H]5CC[C@@]4(C)[C@]3(C)CC[C@@]2(CC(=O)NC(C)(C)c2ncc(Cl)cn2)CC1=O | 92HT599 | p24 / ELISA | MT-2 |  | <1 µM
CC(C)OC(=O)c1cc(NC(=S)SC(C)C)ccc1Cl | IIIB | syncytia | CEM |  | 19.6 µM
Cc1cn([C@H]2C[C@H](N=[N+]=[N-])[C@@H](CO)O2)c(=O)[nH]c1=O |  |  | MT-4 |  | 0.009 µM
CC(C)OC(=O)c1cc(NC(=O)OCC2CC2)ccc1Cl |  | syncytia | CEM | RT-L100I | 12.83 µM
O=C(C(=O)N1CCN(C(=O)c2cscn2)CC1)c1c[nH]c2cccc(Cl)c12 |  | luciferase | HeLa + HELA CD4+/CCR5 |  | <10 µM
CCC(C)OC(=O)c1cc(NC(=S)OC(C)C)ccc1Cl | IIIB | syncytia | CEM |  | 0.061 µM
Cc1ccc(Cl)cc1Nc1nc(C(F)(F)F)ccc1C(=O)NN1CCN(c2cccc(Cl)c2)CC1 | IIIB | luciferase | TZM-bl |  | 10 µM
O=C1C=C[C@H](n2cnc3c(Cl)ncnc32)CC1 | NL4-3 | MTT | MT-4 |  | >13.5 µg/mL
CC1(C)OC(C(O)CN2CCCCC2)[C@H](c2cnn(-c3ccccc3)n2)O1 | RF | cytopathic effect / MTS | CEM + CEM-SS |  | >100 µM
CCCCOC(=S)Nc1ccc(Cl)c(C(=O)OC(C)C)c1 |  | syncytia | CEM | RT-E138K | 7.579 µM
CC1(C)S[C@H](C(NC(=O)Cc2ccccc2)C(=O)NCC(=O)O)N[C@H]1C(=O)NCCNC(=O)[C@@H]1N[C@@H](C(NC(=O)Cc2ccccc2)C(=O)NCc2ccccc2)SC1(C)C | IIIB | cytopathic effect / MTT | MT-4 |  | >100 µM
Cc1cccc(C(=O)NC(C)(C)CNCC[C@@]23CC[C@]4(C)[C@H](CC[C@@H]5[C@@]6(C)CC[C@H](OC(=O)[C@H]7C[C@@H](C(=O)O)C7(C)C)C(C)(C)[C@@H]6CC[C@]54C)C2=C(C(C)C)C(=O)C3)n1 | 92HT599 | p24 / ELISA | MT-2 |  | <1 µM
CC(C)OC(=O)c1cc(NC(=S)N(C)C(C)C)ccc1Cl |  | syncytia | CEM | RT-Y181C | >30.32 µM
C[Si](O)(O[Si](C)(CCCn1cnc2c(N)ncnc21)c1ccccc1)c1ccccc1 | IIIB | cytopathic effect / MTT | MT-2 |  | 10 µM
CCOC(=O)C(C)Oc1cc(NC(=S)OC(C)C)ccc1Cl |  | syncytia | CEM | RT-Y181C | 24.58 µM
CC1(C)OC(c2cnn(-c3ccccc3)n2)C(C(O)CN2CCC(Cc3ccccc3)CC2)O1 | RF | cytopathic effect / MTS | CEM + CEM-SS |  | >100 µM
CSc1ccc(C(=O)N2CCN(C(=O)C(=O)c3c[nH]c4cccc(Cl)c34)CC2)c(S)c1 |  | luciferase | HeLa + HELA CD4+/CCR5 |  | <10 µM
COc1ccc(N(C)C(=O)[C@H](Cc2cc(F)cc(F)c2)NC(=O)CN2CCN(S(=O)(=O)c3ccccc3)CC2=O)cc1 | IIIB | MTT | MT-4 |  | 0.2 µM
[2H]C(CO)(CNCC[C@@]12CC[C@]3(C)[C@H](CC[C@@H]4[C@@]5(C)CC[C@H](OC(=O)[C@H]6C[C@@H](C(=O)O)C6(C)C)C(C)(C)[C@@H]5CC[C@]43C)C1=C(C(C)C)C(=O)C2)NC(=O)c1ccc(Cl)cc1 | 92HT599 | p24 / ELISA | MT-2 |  | <1 µM
CC(C)OC(=S)Nc1ccc(Cl)c(C(=O)OCC2CC2)c1 |  | syncytia | CEM | RT-Y181C | 4.27 µM
Cc1cn([C@@H]2CO[C@H](CO)[C@H]2CO)c(=O)[nH]c1=O |  |  |  |  | 0.8 µM
C/C=C/COc1cc(NC(=S)OC(C)C)ccc1Cl |  | syncytia | CEM | RT-Y181C | 1.834 µM
COc1ccc(/C=C2/SC(=O)N(CC(=O)Nc3nc4ccc(SC#N)cc4s3)C2=O)cc1 | IIIB | MTT | MT-4 |  | >100 µM
COc1cccc2[nH]cc(C(=O)C(=O)N3CCN(C(=O)c4ccccc4)CC3)c12 |  | luciferase | HeLa + HELA CD4+/CCR5 |  | <10 µM
CC(C)C1=C2[C@H]3CC[C@@H]4[C@@]5(C)CC[C@H](OC(=O)[C@H]6C[C@@H](C(=O)O)C6(C)C)C(C)(C)[C@@H]5CC[C@@]4(C)[C@]3(C)CC[C@@]2(CCNCc2ccc(Cl)c(Cl)c2)CC1=O | 92HT599 | p24 / ELISA | MT-2 |  | <1 µM
COC(=O)c1ccc(F)c2c(C(=O)C(=O)N3CCN(C(=O)c4ccccc4)C[C@H]3C)c[nH]c12 |  | luciferase | HeLa + HELA CD4+/CCR5 |  | <10 µM
CCOC(=O)c1cc(NC(=S)OC(C)C)ccc1SC |  | syncytia | CEM | RT-Y181C | 15.95 µM
CC1CN(C(=O)c2ccccc2)CC(C)N1C(=O)C(=O)c1c[nH]c2cccc(F)c12 |  | luciferase | HeLa + HELA CD4+/CCR5 |  | <10 µM
O=C(/C=C/c1ccc(O)c(O)c1)Nc1ccc(S(=O)(=O)Nc2ccc(F)c(Cl)c2)cc1 |  |  | MT-4 |  | >14 µM

A second listing of 9 rows from above:

| structure | strain or isolate | read by | cell line | changes | result |
|---|---|---|---|---|---|
| Cc1ccc2nc(/C(C#N)=C/c3ccc(-c4ccc(O)c(C(=O)O)c4)o3)[nH]c2c1 |  | cytopathic effect / XTT | CEM + CEM-SS |  | 59 µM |
| CC(C)OC(=S)Nc1ccc(Cl)c(C(=O)OCC[Si](C)(C)C)c1 |  | syncytia | CEM | RT-E138K | 18.72 µM |
| C#CCOc1cc(NC(=S)OC(C)C)ccc1Cl |  | syncytia | CEM | RT-V106A | 1.762 µM |
| COC(=O)c1ccc(F)c2c(C(=O)C(=O)N3CCN(C(=O)c4ccccc4)C[C@H]3C)c[nH]c12 |  | luciferase | HeLa + HELA CD4+/CCR5 |  | <10 µM |
| CCCCOC(=S)Nc1ccc(Cl)c(C(=O)OC(C)C)c1 |  | syncytia | CEM | RT-E138K | 7.579 µM |
| Cc1cccc(C(=O)NC(C)(C)CNCC[C@@]23CC[C@]4(C)[C@H](CC[C@@H]5[C@@]6(C)CC[C@H](OC(=O)[C@H]7C[C@@H](C(=O)O)C7(C)C)C(C)(C)[C@@H]6CC[C@]54C)C2=C(C(C)C)C(=O)C3)n1 | 92HT599 | p24 / ELISA | MT-2 |  | <1 µM |
| O=C1C=C[C@H](n2cnc3c(Cl)ncnc32)CC1 | NL4-3 | MTT | MT-4 |  | >13.5 µg/mL |
| CC(C)OC(=O)c1cc(NC(=S)SC(C)C)ccc1Cl | IIIB | syncytia | CEM |  | 19.6 µM |
| COc1ccc(N(C)C(=O)[C@H](Cc2cc(F)cc(F)c2)NC(=O)CN2CCN(S(=O)(=O)c3ccccc3)CC2=O)cc1 | IIIB | MTT | MT-4 |  | 0.2 µM |